Anti-infective test results gathered from many reports (values: NIAID ChemDB through PubChem).

Common to all: growth or infection tests; organism: HIV-1; read by: syncytia; read-out: EC50

ECn: concentration that inhibits the pathogen or its effect by n%. Neighbouring rows are from separate reports.

CC(C)=CCN1Cc2cccc3[nH]c(=S)n(c23)C[C@@H]1C ; cells: CEM ; mutations: RT-Y181C ; strain or isolate: IIIB nevirapine-resistant (RT Y181C) ; value: 2 µM
C/C=C/c1ccc(OCC=C(C)C)c(OC)c1 ; cells: C8166 ; strain or isolate: IIIB ; value: 41 µM
Nc1nc2c(ncn2[C@H]2CC[C@@H](CO)O2)c(=O)[nH]1 ; cells: CEM ; mutations: RT-K103N ; strain or isolate: IIIB TIBO R82913 STR-2 (RT K103N) ; value: 2 µM
CCc1c(Sc2ccccc2)n(COCc2ccccc2)c(=O)[nH]c1=O ; cells: CEM ; mutations: RT-C181I ; strain or isolate: IIIB ; value: 0.35 µM
O=C(O[C@H]1CN2CC[C@H](O)[C@@H]2[C@@H](O)[C@@H]1O)c1ccc(Br)cc1 ; cells: JM ; strain or isolate: GB8 ; value: 0.75 µg/mL
CN[C@@H]1[C@H](O[C@@H]2OC[C@@H](O)[C@H](O)[C@H]2O)[C@@H](O)[C@H](O[C@H]2c3cc(C)c(C(=O)N[C@H](C)C(=O)O)c(O)c3-c3c(cc4c(c3O)C(=O)c3cc(OC)cc(O)c3C4=O)[C@@H]2O)O[C@@H]1C ; cells: C8166 ; value: 4 µg/mL
COc1cc(OC)c2c(c1)C(=O)OC2 ; cells: C8166 ; strain or isolate: IIIB ; value: 19.97 µg/mL
CCc1cc(NCc2nc3c(Cl)ccc(Cl)c3o2)c(=O)[nH]c1C ; cells: CEM ; mutations: RT-C181I ; strain or isolate: IIIB ; value: >15 µM
CCCCCCCCCCCCCCCCOCCCOP(=O)(O)C(=O)O ; cells: HT4 + HT4-6C ; value: 2.5 µM
Cc1cn([C@H]2C[C@H](N=[N+]=[N-])[C@@H](CO)O2)c(=O)[nH]c1=O ; cells: CEM ; strain or isolate: HXB2 ; value: 0.02 µg/mL
Cc1cn([C@H]2C[C@H](N=[N+]=[N-])[C@@H](CO)O2)c(=O)[nH]c1=O ; cells: HT4 + HeLa ; mutations: RT-L210W T215Y ; strain or isolate: M709-1 Clinical isolate ZDV-resistant ; value: 3 µM
Nc1ccn([C@H]2CC[C@@H](CO)O2)c(=O)n1 ; cells: CEM ; strain or isolate: IIIB ; value: 0.02 µM
COc1ncnc2c1ncn2[C@@H]1O[C@H](CO[Si](C)(C)C(C)(C)C)C2(OS(=O)(=O)C=C2N)[C@H]1O[Si](C)(C)C(C)(C)C ; cells: CEM ; strain or isolate: IIIB ; value: 0.07 µg/mL
Cc1ccnc2c1NC(=O)c1cccnc1N2C1CC1 ; cells: CEM ; strain or isolate: HXB2 ; value: 0.09 µg/mL
O[C@H]1OC[C@H](Cc2ccc3c(c2)OCO3)[C@H]1Cc1ccc2c(c1)OCO2 ; cells: H9 ; strain or isolate: IIIB ; value: <12.7 µM
CC(C)Nc1cccnc1N1CCN(C(=O)c2cc3cc(NS(C)(=O)=O)ccc3[nH]2)CC1 ; cells: CEM ; strain or isolate: IIIB ; value: 0.007 µg/mL
Cc1cn([C@H]2C=C[C@@H](CO)O2)c(=O)[nH]c1=O ; cells: CEM + CEM/O ; strain or isolate: IIIB ; value: 0.36 µM
COC(=O)[C@@H](C)NC(=O)c1c(C)cc2c(c1O)-c1c(cc3c(c1O)C(=O)c1cc(OC)cc(O)c1C3=O)[C@H](O)[C@H]2O[C@@H]1O[C@H](CO)[C@H](N)[C@H](O)[C@H]1O ; cells: MOLT-4 ; strain or isolate: IIIB ; value: <30 µg/mL
Cc1cn([C@H]2C[C@H](N=[N+]=[N-])[C@@H](CO)O2)c(=O)[nH]c1=O ; cells: HT4lacZ-1/IIIB + HT4 LacZ-1 ; strain or isolate: IIIB ; value: 0.0012 µM
CCCC(=O)O[C@H]1CN2CC[C@H](O)[C@@H]2[C@@H](O)[C@@H]1O ; cells: JM ; strain or isolate: GB8 ; value: 0.15 µg/mL
OC[C@H]1O[C@@H](Oc2cc(O)c3c(c2)O[C@H](c2ccc(O)c(O)c2)[C@@H](O)C3)[C@H](O)[C@@H](O)[C@@H]1O ; cells: C8166 ; strain or isolate: IIIB ; value: 47.86 µg/mL
C[C@@H]1CC[C@@]2(O)C13CC(=O)C1(C)C2(C)CO[C@]1(OC(=O)c1ccccc1)[C@@H]3O ; cells: C8166 ; strain or isolate: IIIB ; value: 44 µM
Cc1cn([C@@H]2O[C@H](CO[Si](C)(C)C(C)(C)C)C3(OS(=O)(=O)C=C3N)[C@H]2O[Si](C)(C)C(C)(C)C)c(=O)n(C)c1=O ; cells: CEM ; mutations: RT-M41L T215Y ; strain or isolate: HXB2 ; value: 0.05 µg/mL
CCOCn1c(Cc2cc(C)cc(C)c2)c(CC)c(=O)[nH]c1=O ; cells: CEM ; strain or isolate: IIIB ; value: 0.003 ± 0.001 µg/mL
CC(C)=CCc1cc(-c2oc3cc(O)cc(O)c3c(=O)c2O)ccc1O ; cells: MOLT-4/OKM-1(HIV-1) + MOLT-4 ; value: <20 µg/mL
COc1cc(C[C@@](O)(C(N)=O)[C@H](CO)Cc2ccc(OC)c(OC)c2)ccc1O ; cells: H9 ; strain or isolate: IIIB ; value: <1.8 µM
N#CCN1C(=O)N(Cc2ccccc2)S(=O)(=O)c2cscc21 ; cells: MT-4 ; strain or isolate: IIIB ; value: 0.9 µM
COc1c(CC=C(C)C)c(O)cc2oc(=O)c(-c3ccc(O)cc3O)cc12 ; cells: MOLT-4/OKM-1(HIV-1) + MOLT-4 ; value: <20 µg/mL
C=C(C)[C@@H]1CCC2C3(CC[C@]4(C)C(C(C)CC/C=C(/C)C(=O)OC)CC[C@@]24C)CC13CCC(=O)O ; cells: C8166 ; strain or isolate: IIIB ; value: 5.1 µM
Cc1ccnc2c1NC(=O)c1cccnc1N2C1CC1 ; cells: CEM ; strain or isolate: IIIB ; value: 0.032 ± 0.029 µg/mL
Cc1occc1C(=S)Nc1ccc(Cl)c(/C=N/OC(C)(C)C)c1 ; cells: CEM ; strain or isolate: IIIB ; value: 0.013 µg/mL
CC(C)Nc1cccnc1N1CCN(C(=O)c2cc3cc(NS(C)(=O)=O)ccc3[nH]2)CC1 ; cells: MT-2 ; strain or isolate: IIIB ; value: 0.01 µM
CCCCCCCC/C=C\CCCCCCCCOCCCOP(=O)(O)C(=O)O ; cells: HT4 + HT4-6C ; value: 1.5 µM
Cc1ccnc2c1NC(=O)c1cccnc1N2C1CC1 ; cells: CEM ; strain or isolate: IIIB ; value: 0.02 µM
COC(=O)[C@H](C)NP(=O)(OC[C@@H]1C=C[C@H](n2cc(C)c(=O)[nH]c2=O)O1)Oc1ccccc1 ; cells: CEM/dCK- + CEM ; strain or isolate: IIIB ; value: 0.12 µM
COc1cc([C@H]2OC[C@H]3[C@@H]2CO[C@@H]3c2ccc3c(c2)OCO3)cc(OC)c1OC ; cells: H9 ; strain or isolate: IIIB ; value: <10.6 µM
c1cc(CN2CCNCCNCCNCC2)cc(CN2CCNCCNCCNCC2)c1 ; cells: MT-4 ; strain or isolate: IIIB ; value: 0.85 µM
Nc1nc2c(ncn2[C@H]2CC[C@@H](CO)O2)c(=O)[nH]1 ; cells: CEM ; strain or isolate: IIIB ; value: 1.1 ± 0.28 µM
CCCCCCCCCCCCOCCCOP(=O)(O)C(=O)O ; cells: HT4 + HT4-6C ; value: 8.3 µM
Cc1cn([C@@H]2O[C@H](CO[Si](C)(C)C(C)(C)C)C3(OS(=O)(=O)C=C3N)[C@H]2O[Si](C)(C)C(C)(C)C)c(=O)n(C)c1=O ; cells: CEM ; strain or isolate: IIIB ; value: 0.018 µg/mL
Cc1ccc(C(=O)O[C@H]2CN3CC[C@H](O)[C@@H]3[C@@H](O)[C@@H]2O)cc1 ; cells: JM ; strain or isolate: GB8 ; value: 5.8 µg/mL
Cc1cn([C@H]2C[C@H](F)[C@@H](CP(=O)(O)O)O2)c(=S)[nH]c1=O ; cells: MT-2 ; value: 0.5 µM
CCCCCCCCOCCCOP(=O)(O)C(=O)O ; cells: HT4 + HT4-6C ; value: 44 µM
COC(=O)c1cc(O)c(OS(=O)(=O)[O-])c(OC)c1.[Na+] ; cells: C8166 ; strain or isolate: IIIB ; value: 110 µg/mL
Nc1ncnc2c1ncn2CC(CF)OCP(=O)(O)O ; cells: CEM ; mutations: RT-L100I Y188H ; strain or isolate: IIIB TIBO R82913 STR-B22 (RT L100I Y188H) ; value: 4 µM
COc1cc([C@@H]2c3c(cc(OC)c(O)c3OC)C[C@H](CO)[C@H]2COS(=O)(=O)[O-])cc(OC)c1O.[Na+] ; cells: C8166 ; strain or isolate: IIIB ; value: 71.06 µg/mL
Nc1ccn([C@H]2CC[C@@H](CO)O2)c(=O)n1 ; cells: CEM ; mutations: RT-E138K ; strain or isolate: IIIB TSAO-T(RT-E138K) ; value: 0.03 µM
Cc1cn([C@H]2C[C@H](F)[C@@H](COP(=O)(O)O)O2)c(=S)[nH]c1=O ; cells: CEM ; value: 0.5 µM
O[C@H]1[C@H](O)[C@@H](O)CN2CC[C@H](O)[C@H]12 ; cells: HeLa + HELA CD4+ ; value: 10.97 µg/mL
COc1cc(O)c2c(c1)C(=O)c1c(cc3c(c1O)-c1c(cc(C)c(C(=O)N[C@H](C)C(=O)O)c1O)[C@H](O[C@@H]1O[C@H](C)[C@H](N)[C@H](O[C@@H]4OC[C@@H](O)[C@H](O)[C@@H]4O)[C@H]1O)[C@H]3O)C2=O ; cells: MOLT-4 ; strain or isolate: IIIB ; value: <10 µg/mL
Cc1cn([C@H]2C=C[C@@H](COP3(=O)OCc4c(ccc5ccccc45)O3)O2)c(=O)[nH]c1=O ; cells: CEM + CEM/O ; strain or isolate: IIIB ; value: 0.08 µM
C1CNCCNCC(CCOCCOCCC2CNCCNCCCNCCNC2)CNCCNC1 ; cells: MOLT-4 ; strain or isolate: SF2 ; value: 115 µM
Cc1ccnc2c1NC(=O)c1cccnc1N2C1CC1 ; cells: CEM ; mutations: RT-Y181C ; strain or isolate: IIIB nevirapine-resistant (RT Y181C) ; value: 5 µM
CC(C)=CCN1Cc2cc(Cl)cc3[nH]c(=S)n(c23)C[C@@H]1C ; cells: CEM ; strain or isolate: IIIB ; value: 0.06 µM
O=C1N(Cc2ccccc2)c2cscc2S(=O)(=O)N1Cc1ccccc1 ; cells: MT-4 ; strain or isolate: NDK ; value: 2.1 µM
Nc1ncnc2c1ncn2CCOCP(=O)(O)O ; cells: CEM ; strain or isolate: IIIB ; value: 8.5 ± 2.1 µM
CN1C(=O)N(Cc2ccccc2)S(=O)(=O)c2cscc21 ; cells: MT-4 ; strain or isolate: HE ; value: 106 µM
CC(=O)c1cc(O)c(O)c(O[C@@H]2O[C@H](CO)[C@@H](O)[C@H](O)[C@H]2O)c1 ; cells: C8166 ; strain or isolate: IIIB ; value: 46.25 µg/mL
CNc1ncnc2c1ncn2[C@@H]1O[C@H](CO[Si](C)(C)C(C)(C)C)C2(OS(=O)(=O)C=C2N)[C@H]1O[Si](C)(C)C(C)(C)C ; cells: CEM ; strain or isolate: IIIB ; value: 0.16 µg/mL
Cc1cn([C@H]2C[C@H](N=[N+]=[N-])[C@@H](CO)O2)c(=O)[nH]c1=O ; cells: MT-2 ; value: 0.1 µM
CCOCn1c(Sc2ccccc2)c(CC)c(=O)[nH]c1=S ; cells: CEM ; mutations: RT-C181I ; strain or isolate: IIIB ; value: 0.78 µM